Values of other authors, collected in US20110086877A1 (priority 2005, published 2011).
Like-named read-outs stand apart in the source and are kept apart here.

Chains of the proteins cited; added tags and fusions are not shown. Residues count along the entry.
UniProt P0DPI0, 2-448 limits assumed: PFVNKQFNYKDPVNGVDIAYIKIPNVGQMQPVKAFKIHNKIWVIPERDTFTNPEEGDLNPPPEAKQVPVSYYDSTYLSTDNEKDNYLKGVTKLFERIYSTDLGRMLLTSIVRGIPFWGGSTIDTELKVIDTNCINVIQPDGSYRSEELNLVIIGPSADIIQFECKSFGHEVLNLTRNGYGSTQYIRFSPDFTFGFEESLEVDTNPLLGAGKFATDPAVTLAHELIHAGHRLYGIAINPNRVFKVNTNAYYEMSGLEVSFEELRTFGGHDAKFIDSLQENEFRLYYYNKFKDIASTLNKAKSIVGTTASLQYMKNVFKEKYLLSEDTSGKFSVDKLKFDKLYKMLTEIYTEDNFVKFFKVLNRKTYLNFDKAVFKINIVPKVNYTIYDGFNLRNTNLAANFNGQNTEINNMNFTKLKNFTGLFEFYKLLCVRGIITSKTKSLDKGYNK

Target: BoNT/A LC (Clostridium botulinum, UniProt P0DPI0)
Conditions: cited from earlier work

## 2-mercapto-3-phenylpropionyl-RATKML [mpp-RATKML]
read-out: Ki (printed as "1")
  Ki: 330 nM
read-out: Ki
  Ki: 300 nM
